Source: PubChem BioAssay AID588335 (The Scripps Research Institute Molecular Screening Center, 2011)
The entries are a selection whose mix differs from that of the whole data set. Activity calls are given as the source filed them. Rule as the data show it: active = inhibition above about 30%; inactive = the rest.

Test: GDH-TPI coupling enzyme inhibitors, primary screen, artefact control for M. tuberculosis FBA inhibitor project, biochemical, absorbance, full deck (AID 588335);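 also: 0% = DMSO wells and 100% = wells lacking the enzyme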
Settings: GDH-TPI coupled enzyme counterscreen, NADH absorbance; at 4.8 µM; hits give high values

Compound | inhibition
CCN1CCC(Nc2ccc(Cl)cc2)CC1 | inactive: -4.2%
N#CC1(Nc2ccccc2)CCN(CCc2ccccc2)CC1 | inactive: -7.26%
CSc1ccc(C(=O)NCC2(N3CCOCC3)CCCCC2)cc1 | inactive: 8.28%
O=C(NCC1(N2CCCCC2)CCCCC1)c1cccc([N+](=O)[O-])c1 | inactive: -0.63%
O=C(NCC1(N2CCCCC2)CCCCC1)c1ccc(OC(F)F)cc1 | inactive: -5.45%
COc1cc(C(=O)NCC2(N3CCCCC3)CCCCC2)ccc1OC(F)F | inactive: 8.96%
O=C(NCC1(N2CCOCC2)CCCCC1)c1cc(=O)[nH]c2ccccc12 | inactive: -0.85%
CN1CCN(CCOC(=O)C(O)(c2ccccc2)c2ccccc2)CC1 | inactive: -8.24%
CC(C)c1ccc(C(=O)NCC2(N3CCOCC3)CCCCC2)cc1 | inactive: 0.34%
COc1ccc(NC2CCN(C(=O)OC(C)(C)C)CC2)cc1 | inactive: -2.2%
O=C(NCC1(N2CCCCC2)CCCCC1)c1cccc(C(F)(F)F)c1 | inactive: -0.75%
COc1cc(OC)c(C(=O)NCC2(N(C)C)CCCCC2)cc1OC | inactive: 6.44%
O=C(NCC1(N2CCOCC2)CCCCC1)c1cc(F)c(F)cc1Cl | inactive: 1.27%
CC(C)c1ccc(NC2CCN(C(=O)OC(C)(C)C)CC2)cc1 | inactive: -5.26%
COc1ccc(CN(CCCl)CCCl)cc1Cl | inactive: 6.37%
CN(C)c1cccc(C(=O)NCC2(N3CCCCC3)CCCCC2)c1 | inactive: -3.13%
Cc1ccc(C(=O)NCC2(N(C)C)CCCCC2)o1 | inactive: -2.68%
CCCOc1ccc(C(=O)NCC2(N(C)C)CCCCC2)cc1OC | inactive: -0.42%
CN1CCC(Nc2cccc(F)c2)CC1 | inactive: -15.5%
O=C(NCC1(N2CCCCC2)CCCCC1)c1cncc(Br)c1 | inactive: -5.45%
CSc1ccccc1C(=O)NCC1(N2CCCCC2)CCCCC1 | inactive: -3.27%
Cc1cccc(NC2(C#N)CCN(Cc3ccccc3)CC2)c1 | inactive: -4.74%
COc1ccc(C(=O)NCC2(N3CCCCC3)CCCCC2)cc1 | inactive: 11.9%
CC(C)(C)OC(=O)N1CCC(N(C(=O)c2ccccc2)c2ccc(F)cc2)CC1 | inactive: -1.43%
COc1ccc(C(=O)NCC2(N3CCCCC3)CCCCC2)c(OC)c1OC | inactive: -0.94%

Compound | inhibition
O=C(NCC1(N2CCCCC2)CCCCC1)c1ccc(=O)[nH]c1 | inactive: -2.09%
O=C(NCC1(N2CCCCC2)CCCCC1)c1cccs1 | inactive: 11.8%
N#CC1(Nc2ccccc2)CCN(Cc2ccccc2)CC1 | inactive: -8.84%
O=C(NCC1(N2CCCCC2)CCCCC1)c1ccc(Cl)s1 | inactive: -6.49%
O=C(OC1CN2CCC1CC2)C1c2ccccc2Oc2ccccc21 (stereo not given) | inactive: 5.49%
COc1ccc(Cl)cc1C(=O)NCC1(N2CCOCC2)CCCCC1 | inactive: 7.69%
CCOC(=O)N1CCC(Nc2ccc(OC)cc2)CC1 | inactive: -3.88%
O=C(NCC1(N2CCCCC2)CCCCC1)c1ccc(Cl)nc1 | inactive: 10.9%
Cc1cc(C)cc(N(C(=O)c2ccccc2)C2CCN(C(=O)OC(C)(C)C)CC2)c1 | inactive: 1.72%
O=C(NCC1(N2CCOCC2)CCCCC1)c1cc2ccccc2o1 | inactive: -3.13%
O=P1(N(CCCl)CCCl)SCCCS1 | inactive: -6.88%
CCCCOc1ccc(C(=O)NCC2(N3CCOCC3)CCCCC2)cc1 | inactive: 2.07%
O=C(NCC1(N2CCCCC2)CCCCC1)c1ccc(F)cc1 | inactive: -9.96%
COc1ccc(NC2CCN(CCc3ccccc3)CC2)c(OC)c1 | inactive: 0.42%
CCOC(=O)N1CCC(Nc2ccc(F)cc2)CC1 | inactive: 2.56%
O=C1CCN(Cc2ccccc2)CC1 | inactive: 0%
CCOc1ccc(C)cc1CN(CCCl)CCCl | inactive: 9.56%
CCOC(=O)N1CCC(Nc2cccc(C)c2)CC1 | inactive: 6.99%
COc1cc(C(=O)NCC2(N(C)C)CCCCC2)ccc1OC(F)F | inactive: 0%
Cc1ccc(C(=O)NCC2(N3CCCCC3)CCCCC2)o1 | inactive: -4.98%
Fc1ccccc1NC1CCN(Cc2ccccc2)CC1 | inactive: 0%
Cc1ccc(NC2(C#N)CCN(Cc3ccccc3)CC2)cc1 | inactive: 3.02%
CC(=O)N(c1ccccc1)C1CCNCC1 | inactive: 9.36%
COc1cc(OC)cc(C(=O)NCC2(N3CCCCC3)CCCCC2)c1 | inactive: -5.9%
O=C(NCC1(N2CCCCC2)CCCCC1)c1ccco1 | inactive: 3.96%

Compound | inhibition
CN(C)c1ccc(C(=O)NCC2(N3CCCCC3)CCCCC2)cc1 | inactive: 8.54%
Cn1c(=O)[nH]cc(N(CCCl)CCCl)c1=O | inactive: 0.88%
Cc1ccccc1NC1(C#N)CCN(Cc2ccccc2)CC1 | inactive: 2.29%
CCN1CCC(Nc2cccc(F)c2)CC1 | inactive: 7.91%
CC(C)(C)OC(=O)N1CCC(Nc2ccccc2)CC1 | inactive: 1.27%
O=C(O)C1(Nc2ccccc2)CCN(Cc2ccccc2)CC1 | inactive: 5.71%
CCCOc1ccc(C(=O)NCC2(N(C)C)CCCCC2)cc1 | inactive: -5.15%
CCOc1ncccc1C(=O)NCC1(N2CCOCC2)CCCCC1 | inactive: -6.06%
CN1CCC(Nc2ccc(F)c(Cl)c2)CC1 | inactive: 8.63%
CN1CCC(Nc2ccc(Cl)cc2)CC1 | inactive: -2.48%
COc1cc(OC)cc(C(=O)NCC2(N3CCOCC3)CCCCC2)c1 | inactive: -10.4%
COc1cccc(C(=O)N(c2cc(C)cc(C)c2)C2CCN(C(=O)OC(C)(C)C)CC2)c1 | inactive: -5.17%
CCC(CO)(C(=O)OC1CN2CCC1CC2)c1ccccc1 (stereo not given) | inactive: 5.99%
COc1ccc(C(=O)NCC2(N3CCOCC3)CCCCC2)cc1OC | inactive: 0%
COc1cc(C(=O)NCC2(N3CCOCC3)CCCCC2)cc(OC)c1C | inactive: 2.2%
O=C(NCC1(N2CCOCC2)CCCCC1)c1cc(Br)ccc1Cl | inactive: 15.4%
O=C(OC1CN2CCC1CC2)C1c2ccccc2C=Cc2ccccc21 (stereo not given) | inactive: 14.2%
CCOC(=O)N1CCC(Nc2ccc(C)cc2)CC1 | inactive: -2.86%
N/C(=N\O)c1c(N)no[n+]1[O-] | inactive: 7.63%
N#Cc1ccc(C(=O)NCC2(N3CCCCC3)CCCCC2)cc1 | inactive: 13.4%
CC(C)(C)OC(=O)N1CCC(N(C(=O)c2ccccc2)c2ccc(Cl)cc2)CC1 | inactive: 7.14%
CN(C)C1(CNC(=O)c2cccc(C#N)c2)CCCCC1 | inactive: 6.03%
c1ccc(CN2CCC(Nc3ccccc3)CC2)cc1 | inactive: -1.51%
Cc1cc(N(CCCl)CCCl)ccc1C=O | active: 40.5%
CCCN1CCC(Nc2cc(OC)cc(OC)c2)CC1 | inactive: -3.85%
